In PubChem BioAssay AID603 (National Center for Advancing Translational Sciences (NCATS), 2007):
“And” between values parts separate entries of the source, which are not always exact repeats. Equal values may be shown once. This is a selection; strong and weak results do not stand in their true shares. The source made the active and inactive calls. Calls follow the shape of the dose curve; as a rule, active = well fitted curve in the direction sought with a large enough effect; inconclusive = small, poorly fitted or top-dose-only effect; inactive = flat fitted curve, though single readings scatter.

Tested on: DNA polymerase III holoenzyme (E. coli)
Assay: qHTS Assay for Inhibitors of DNA Polymerase III Holoenzyme System
Details: reconstituted DNA polymerase III holoenzyme replication, biochemical
Procedure: NIH Molecular Libraries Screening Centers Network [MLSCN]
NIH Chemical Genomics Center [NCGC]
Assay Provider: Charles McHenry, University of Colorado
E. coli DNA polymerase III holoenzyme complex was assayed for DNA production by fluorescent detection of the double-stranded DNA product with PicoGreen dye. The holoenzyme complex was reconstituted from the following purified protein components: DNA Polymerase III, beta subunit processivity factor, SSB single-stranded DNA binding protein, and Primase. Single-stranded, circular M13Gori was used as a substrate with dNTPs and NTPs also supplied to the substrate reagent. Compounds from the NCGC collection were incubated with the holoenzyme mixture for 15 min at room temperature to allow binding to occur, and then the reaction was started by the addition of substrate. After 30 min incubation at room temperature, PicoGreen solution containing EDTA was added to stop the reaction and to visualize the double-stranded DNA produced. Reaction progress was measured in a ViewLux CCD imager in fluorescence intensity mode by using 480 nm excitation and 540 nm emission filter set.
NCGC Assay Protocol Summary:
Buffer. 50 mM Hepes-KOH, pH 7.5, 5 % Glycerol, 0.02% NP40, 30 mM potassium;
glutamate, 1.5 mM Magnesium Acetate, 16 uM TCEP.
Buffer in columns 3 and 4 as negative control (no enzyme).
Substrate solution: 5 uM each dATP, dGTP, dCTP and TTP, 50 uM each GTP, CTP, UTP and 200 uM ATP, 1.4 nM M13gori (final concentrations).
Enzyme: 154 nM SSB, 2 nM Primase, 1 nM Beta, 0.35 nM Pol III (final concentrations).
PicoGreen/EDTA: 10 mM Tris-HCl, 10 mM EDTA, 5 uM PicoGreen (final concentrations).
Control titration: ChemBridge 5805060 (from 10 mM, then 1:2, in duplicate) was pin-transferred to upper half of column 2.
Three uL of holoenzyme mixture were dispensed to 1536-well Greiner black solid bottom plates. Compounds and controls (23 nL) were transferred via Kalypsys PinTool. The plates were incubated for 15 min at room temperature, and then 1 uL of substrate solution was added to start the reaction. After room temperature incubation for 35 minutes, 1 uL of PicoGreen solution was added to each well and the plates were read 480 nm excitation and 540 nm emission using ViewLux (Perkin-Elmer) High-throughput CCD imager and fluorescence protocol settings.
Keywords: NIH Roadmap, MLSCN, MLI, MLSMR, qHTS, NCGC, DNA Polymerase III, DNAPol3, DNAPoly3, DNA replication targets

[1] = at 57.1 µM (top of the series) unless noted
% is scaled to controls: 0 for no effect and ±100 for the full control effect.

CN(C(=O)Cc1ccccc1)[C@@H]1CC[C@@]2(CCCO2)C[C@H]1N1CCCC1
activity change, negative = inhibition [1]: inactive: -1.9%

CCc1nc2c(n1)c1c(non1O)c1c2no[n+]1[O-]
activity change, negative = inhibition [1]: inactive: -8%

O=C(CO)Nc1ccc([As](=O)(O)O)cc1
activity change, negative = inhibition [1]: inactive: -9.9% [at 11.4 µM]

O=[N+]([O-])c1ccc(C[As](=O)(O)O)cc1
activity change, negative = inhibition [1]: inactive: -8.3% [at 11.4 µM]

NCC[C@@H](N)CSP(=O)(O)O
activity change, negative = inhibition [1]: inactive: -1.7% [at 11.4 µM]

Cc1c2non([O-])c-2c(C)[n+](=O)[n+]1[O-]
activity change, negative = inhibition [1]: inactive: -13.6%

CN(C(=O)Cc1ccc(Cl)c(Cl)c1)[C@H]1CCCC[C@@H]1N1CCCC1
activity change, negative = inhibition [1]: inactive: -3% and inactive: -5.8% and inactive: -2.7%

C(Cc1nn[nH]n1)c1nn[nH]n1
activity change, negative = inhibition [1]: inactive: -1.4% [at 11.4 µM]

[N-]=[N+]=NCC(O)CN=[N+]=[N-] (configuration not stated)
activity change, negative = inhibition [1]: inactive: -8.3% [at 11.4 µM]

COC(=O)c1cc2c(s1)N=C(c1ccccc1)N(C)P2(=O)N1CCOCC1 (configuration not stated)
activity change, negative = inhibition [1]: inactive: -1.7%

O=P1(Nc2nc3ccc(Cl)cc3s2)COc2ccccc2O1 (configuration not stated)
activity change, negative = inhibition [1]: inactive: 3.5%

c1nnnn1CCn1cnnn1
activity change, negative = inhibition [1]: inactive: -0.5%

O=P(Nc1nccs1)(c1ccccc1)c1ccccc1
activity change, negative = inhibition [1]: inactive: 2.8%

C[C@@H](O)COc1ccc([As](=O)(O)O)cc1N
activity change, negative = inhibition [1]: inactive: -6% [at 11.4 µM]

CN1CCC[C@H](OC(=O)C(c2ccccc2)c2ccccc2)C1
activity change, negative = inhibition [1]: inactive: -9.7% [at 11.4 µM]

Cc1cc([N+](=O)[O-])cc([N+](=O)[O-])c1O
activity change, negative = inhibition [1]: inactive: -0.5%

[N-]=[N+]=Nc1ccc([As](=O)(O)O)cc1
activity change, negative = inhibition [1]: inactive: -0.8% [at 11.4 µM]

O=C(OC1CN2CCC1CC2)c1cccc(Cl)c1 (configuration not stated)
activity change, negative = inhibition [1]: inactive: -4.3%

Cc1nn(-c2ccccc2)c2c1P(=O)(N1CCOCC1)N(C)C(c1ccccc1)=N2 (configuration not stated)
activity change, negative = inhibition [1]: inactive: -8.1%

O=P1(Nc2ccc(Br)cn2)COc2ccccc2OC1
activity change, negative = inhibition [1]: inactive: 9.4%

O=P1(Nc2ncccn2)COc2ccccc2OC1
activity change, negative = inhibition [1]: inactive: -4.6%

Clc1n[nH]nc1-c1nn[nH][15n]1
activity change, negative = inhibition [1]: inactive: -7.6%

O=P1(Nc2ccccn2)COc2ccccc2OC1
activity change, negative = inhibition [1]: inactive: -4.6%

CN(CCCl)Cc1cc(Cl)c(NC2=NCCN2)c(Cl)c1
activity change, negative = inhibition [1]: inactive: -5.7%

CN(C(=O)Cc1ccc(Cl)c(Cl)c1)[C@@H]1CCCC[C@H]1N1CCCC1
activity change, negative = inhibition [1]: inactive: -3.4% [middle of 4 runs]

CN(C(=O)Cc1ccc(Cl)c(Cl)c1)[C@@H]1CC[C@@]2(CCCO2)C[C@H]1N1CCCC1
activity change, negative = inhibition [1]: inactive: -3.6%

NS(=O)(=O)Cc1ccc([As](=O)(O)O)cc1
activity change, negative = inhibition [1]: inactive: 7.6% [at 11.4 µM]

O=C(CC(=O)c1ccccc1)O[C@H]1CN2CCC1CC2
activity change, negative = inhibition [1]: inactive: 1.7% [at 11.4 µM]

O=[As](O)(O)c1ccc([As](=O)(O)O)cc1
activity change, negative = inhibition [1]: inactive: -4.3% [at 11.4 µM]

CCOP1(=S)c2c(C)nn(CCC#N)c2N=C(c2ccccc2F)N1C (configuration not stated)
activity change, negative = inhibition [1]: inactive: -2.5%

O=P(Nc1nccs1)(c1ccccc1)c1nc2ccccc2s1 (configuration not stated)
activity change, negative = inhibition [1]: inactive: -3.6%

CCOP1(=S)c2c(C)nn(CCC#N)c2N=C(c2ccc(F)cc2)N1C (configuration not stated)
activity change, negative = inhibition [1]: inactive: 0.9%

NC(=O)Nc1ccc([As](=O)(O)O)cc1
activity change, negative = inhibition (at 25.6 µM (top of the series)): inactive: -4.9% | activity change, negative = inhibition (at 57.1 µM (top of the series)): inactive: -5.6%

O=[As]c1ccc(S(=O)(=O)NCCO)cc1 (configuration not stated)
activity change, negative = inhibition [1]: inactive: -8.7% [at 11.4 µM]

[N-]=[N+]=NCC(N)=O
activity change, negative = inhibition [1]: inactive: -9.6% [at 11.4 µM]

NC(=O)Nc1cc([As](=O)(O)O)cc(I)c1O
activity change, negative = inhibition [1]: inactive: -9.9% [at 11.4 µM]

O=C(OC1CN2CCC1CC2)C12CC3CC(CC(C3)C1)C2 (configuration not stated)
activity change, negative = inhibition [1]: inactive: -1%

O=C(COc1ccccc1)OC1CN2CCC1CC2 (configuration not stated)
activity change, negative = inhibition [1]: inactive: -5.8%

O=C(O)[C@@H](O)c1ccc([As](=O)(O)O)cc1
activity change, negative = inhibition [1]: inactive: 6.2% [at 11.4 µM]

COP1(=S)c2c(C)nn(CCC#N)c2N=C(c2ccc(F)cc2)N1C (configuration not stated)
activity change, negative = inhibition [1]: inactive: -7.9%

CN(N=O)C(=N)N[N+](=O)[O-]
activity change, negative = inhibition [1]: inactive: -2.8%
